Percent effect of library compounds

A: 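Growth of Mycobacterium tuberculosis over 3 days (7H9 medium with glucose and tyloxapol); the read-out is not stated. Tested at 50 µM. Direction is inferred from retests: higher values go with more growth inhibition. Size under these conditions: about 69,000 compounds, about 760 of them at 50% or above in at least one test.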
B: 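Whole-cell growth test on Mycobacterium tuberculosis, read after 4 days in a medium based on cholesterol and the lipid DPPC; the read-out is not stated. Tested at 50 µM. Higher reads as more growth inhibition (inferred: compounds with an IC50 in retests scored well above the rest). Of about 69,000 compounds tested this way, about 370 (0.54%) reached 50% or more in at least one test.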

Values are the deposited “Percent Effect”, in %. The controls that fix the scale are not given in the record; negative values are as filed. This is part of a subset picked to be rich in strong results. Two or more numbers in one place are separate tests of the same structure; such repeats can differ widely. A dash means the value is not listed here; it may have been measured.

compound,A,B
Cc1nc(CN2C(=O)CCC23CCN(Cc2ccccn2)CC3)cs1.O=C(O)C(F)(F)F.O=C(O)C(F)(F)F,53.58,-
CCOCCC(=O)NCC(C)c1ccsc1 (stereo not shown),4.5 & 9.216,8.359
Cc1cnn(CC2CCCN2Cc2nccn2CC(F)(F)F)c1 (stereo not shown),5.328,-
CC1(C)CN(Cc2nnc(-c3cccnc3)o2)CC[C@]1(C)O,6.085,-
CCC(CC)CN(C)Cc1nc(-c2ccccc2NS(C)(=O)=O)oc1C,-,16.11
Cc1ccc(OC(C)CNC(=O)c2c[nH]nn2)cc1 (stereo not shown),3.643,0.6963 & -2.592
CCN(C(=O)COC)C(c1ccc(Cl)cc1)c1ccccn1 (stereo not shown),-,11.22
O=C(NCCc1ccccn1)c1[nH]nc2c1CCCC2,-,10.05
CS(=O)(=O)N[C@@H]1CN(C(=O)c2cc3ccccc3s2)C[C@H]1O,74.34,-
OC1(CN2CCC(Oc3cccc(C(F)(F)F)c3)CC2)CNCCOC1 (stereo not shown),31.52,-
Cc1csc2ncc(-c3ccnc(N4CCCN(C)CC4)n3)c(=O)n12,9.329,-
Cc1noc(C2CCC3(CCN(C(=O)c4cc(C5CC5)on4)CC3)O2)n1 (stereo not shown),1.111,-
Cc1oc(C)c(C(=O)NCc2ccccn2)c1C,-2.431,-6.792
CCc1nc2c(NCC3COc4c(cccc4OC)C3)ncnc2o1 (stereo not shown),64.54,-
[H][C@]12CCN(C(=O)C3CCCO3)CC[C@@]1([H])S(=O)(=O)N(CC(C)C)C2 (stereo partly shown),-10.39 & 82.22,-
Cc1nc(N)nc(N2CCOc3ccc(CO)cc3C2)c1C,5.613 & 23.45,-
Cl.NCC1CCCCN1C(=O)Cc1cccc(Cl)c1 (stereo not shown),-,4.916
CCN1CCN(CCNC(=O)c2ccn(-c3ccc(F)cc3)n2)CC1,-13.99,-16.64
Cc1nc(COC(=O)c2cccnc2C)no1,2.547,-16.3
Cc1cnc(C(=O)N2CCCC(c3nccn3Cc3cscn3)C2)cn1 (stereo not shown),6.7,-
CCCc1nnsc1C(=O)NCC1CCN(c2ccccn2)CC1,60.95 & 19.67,-
[H][C@@]12CN(c3cccnc3)CC[C@]1([H])CN(c1ncccn1)C2,-0.4759,-
CC(=O)NCCOc1c(Cl)cccc1Cl,-2.815,-
CN(Cc1ccsc1)C(=O)CNC(=O)N1CCc2ccccc2C1,-28.39,-3.374
Cc1nc(O)c2c(n1)CCN(Cc1cc(C)sc1C)CC2,-,13.52
O=C(c1ccc(-n2cccn2)nc1)N1CCCN(c2cccnn2)CC1,-6.736,6.166
COc1ccc(C(N)=O)cc1NCc1ncc(C(C)(C)C)o1,-42.78,-
COc1ccc(CCn2cnnc2[S+](C)[O-])cc1 (stereo not shown),17.74,-9.082
CCOc1nn(CC)cc1-c1nnc(SCc2ccccn2)n1C,-6.524 & 86.25,-
CN(Cc1ccc(Br)s1)Cn1nc(-c2ccccc2)oc1=O,-13.24,-
[H][C@]12CC[C@]([H])(CN(Cc3ccccc3)C1)N(Cc1snnc1C)C2,74.36,-
Cn1c(C2CC2)nc2c1CCN(CCOc1cccc(F)c1)C2,56.73,-
C=C(C)CSc1nnc(CCNC(=O)OC(C)(C)C)o1,54.65,57.6
N#CC1CCCN(c2nc(-c3ccccc3)nc3c2CCNCC3)C1 (stereo not shown),25.46,11.15
O=C(O)c1ccccc1-c1ccc(CN2CCOCC2)cn1,-,12.97
CCc1noc(CNc2ccc(F)cc2OCC2CC2)n1,18.92,-
O=C(NCC1(c2cccc(F)c2)CC1)N1CCC2(CCOC2)C1 (stereo not shown),6.727 & -11.85,-
CCCn1nnnc1CN(C)C(C)c1ccc(C)cc1 (stereo not shown),10.97,-
CC(=O)NCCCOc1c(C)cccc1Cl,11.23,-
CCC(CO)NCc1ccc(-c2ccc(Br)cc2)o1.Cl (stereo not shown),48.03 & 58.01,41.93
Cc1cc(CN(C)CC2(O)CCCN(CCC3CCCCC3)C2=O)no1 (stereo not shown),-15.26,69.28
Cc1cc(CN2CCN(C(=O)CCc3cccc(F)c3F)CC2)on1,31.96,-
O=C(NCCc1cc(=O)[nH]cn1)c1[nH]nc2c1CCCC2,-,-0.555
CO[C@H]1CCN(c2ncccn2)[C@H]1Cc1ccccc1,-16.29,-
CC(C)Nc1nc(N2CCCC2)nc2c1CN(c1ncc(F)cn1)CC2,35.26,-
CCn1nc(C)c2nc(C(C)C)nc(NCC(C)O)c21 (stereo not shown),7.483,-
Cc1nnc(NCC(c2cccs2)N2CCCC2)c(C#N)c1C (stereo not shown),-4.399,-
Cc1ccc(Cl)c(NC(=O)NC2(C)CCOC2)c1 (stereo not shown),88.52,-
CCCN1CCC(NC(=O)Nc2ccc(OC)c(OC)c2)CC1,14.08,-17.61 & -2.805
CS(=O)(=O)N1CCc2[nH]cnc2C12CCN(C(=O)c1ccc[nH]1)CC2,-,19.23 & 0.7519
CNC(=O)CN1CCCC1c1ccccc1Br (stereo not shown),26.17,-
COc1ccc(C2CCCN2c2ccc(C#N)cn2)c(OC)c1 (stereo not shown),51.42,-
Cc1nc(C2CCCN2C(=O)c2cc3c(s2)CCC3)no1 (stereo not shown),1.535 & -37.99,-
O=C(O)C(F)(F)F.[H][C@@]12CN(Cc3nccs3)C[C@]1([H])C(=O)N(c1ccsc1)C2,23.12,-
COc1cccc2sc(N3CCN(C(=O)c4cc(C)on4)CC3)nc12,-,-16.67
COc1cc(OC)cc(-c2noc(CC(N)c3ccccc3)n2)c1 (stereo not shown),14.5 & 3.972,-
Cc1ccc(CN(C)C(=O)Cn2nc(-c3ccc(F)cc3)oc2=O)cc1,-,-24.99
Cc1nc(-c2cccc(C(=O)O)c2)cc(C2CCCN(C(C)C)C2)n1 (stereo not shown),-38.73,-

The values are deposited in ChEMBL (CHEMBL3988442, “University of Dundee, Small-Polar-MMV Screening Library” (2021)).